Like-named read-outs stand apart in the source and are kept apart here.
How the values were obtained:
Assay in all cases: cell-based or functional assay
[1] = target: T1, integrin αIIbβ3 on platelets of healthy donors (UniProt P08514 32-1039; P05106 27-788)
[2] = target: T1, integrin αIIbβ3 on platelets of healthy …; remark: listed apart in the source
[3] = target: T1, integrin αIIbβ3 on platelets of healthy …; remark: listed apart in the source
[4] = target: T2, integrin αvβ6 on HT-29 cells (human, UniProt P06756 31-1048; P18564 22-788)
[5] = target: integrin αIIbβ3 on CHO-αIIbβ3 cells (UniProt P08514 32-1039; P05106 27-788)
[6] = target: T3, integrin α5β1 on K562 cells (human, UniProt P08648 42-1049; P05556 21-798)
[7] = target: T4, integrin αvβ3 on CHO-αvβ3 cells (UniProt P06756 31-1048; P05106 27-788)
[8] = target: T2, integrin αvβ6 on HT-29 cells; remark: listed apart in the source
[9] = target: integrin αvβ5 on HT-29 cells (human, UniProt P06756 31-1048; P18084 24-799)
[10] = target: T1, integrin αIIbβ3 on platelets of healthy …; remark: listed apart in the source
[11] = target: T4, integrin αvβ3 on CHO-αvβ3 cells; remark: listed apart in the source
[12] = target: T3, integrin α5β1 on K562 cells; remark: listed apart in the source

B1: ^39KKART-^46ARGRGDNP-^66GLYG (KG-P) (ligand)
chain: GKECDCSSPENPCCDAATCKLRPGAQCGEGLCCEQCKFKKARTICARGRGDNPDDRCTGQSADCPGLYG
- IC50, Platelet Aggregation [1]: 35300 nM
- IC50, Platelet Aggregation [2]: 35300 nM
- IC50, Platelet Aggregation [3]: 35300 nM

B2: ^39KKART-^46 ARGRGDNP-^66DLYG (ligand)
chain: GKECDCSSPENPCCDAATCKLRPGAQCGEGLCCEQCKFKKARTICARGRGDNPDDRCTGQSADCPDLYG
- IC50, Platelet Aggregation [3]: 84700 nM
- IC50, adhesion of HT-29 cells to fibronectin [4]: 2000 nM

B3: ^39KKART-^46ARGRGDNP-^66RYH (KG, AR-NP) (ligand)
chain: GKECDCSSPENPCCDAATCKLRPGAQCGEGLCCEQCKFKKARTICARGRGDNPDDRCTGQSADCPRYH
- IC50, adhesion of CHO-αIIbβ3 cells to fibrinogen [5]: 37900 nM
- IC50, Platelet Aggregation [1]: 4480 nM
- IC50, adhesion of K562 cells to fibronectin [6]: 28.8 nM
- IC50, adhesion of CHO-αvβ3 cells to fibrinogen [7]: 5 nM
- IC50, adhesion of HT-29 cells to fibronectin [8]: 317 nM
- IC50, adhesion of HT-29 cells to vitronectin [9]: 446 nM

B4: 39MKKGT-^48ARGDN^53P-^67NGLY^71G (ligand)
chain: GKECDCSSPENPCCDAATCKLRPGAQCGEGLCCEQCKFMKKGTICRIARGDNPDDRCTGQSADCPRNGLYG
- IC50, Platelet Aggregation [10]: 178 nM
- IC50, adhesion of CHO-αvβ3 cells to fibrinogen [11]: 4 nM

B5: ^39SRAG^43K-^48ARGDN^53P-^67Y^68H (ligand)
chain: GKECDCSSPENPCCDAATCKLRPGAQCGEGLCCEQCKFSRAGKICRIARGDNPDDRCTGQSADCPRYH
- IC50, Platelet Aggregation [10]: 125 nM
- IC50, adhesion of K562 cells to fibronectin [12]: 40 nM

— US20200010516A1 (NATIONAL CHENG KUNG UNIVERSITY, published 2020)
